Compound potency records, mixed from different reports. Data source: NIAID ChemDB in PubChem.

All rows: growth or infection tests; organism: Hepatitis B virus; method: ELISA / antigen; measure: EC50

Blank or dashed fields: not listed here. Lines come from different laboratories, so protocols vary. ECn: concentration that inhibits the pathogen or its effect by n%.

structure | strain or isolate | cells | result
CC1O[C@@H]2C[C@H]3[C@H]4C5=C(C(=O)OCC5=C[C@]13C1=C2C(=O)OCC1)[C@@H](O)[C@]12C(=O)OCCC1=C(C=O)[C@@H](C)O[C@H]42 | - | HepG2.2.15 | 440 µM
C[C@@H]1O[C@@H](O[C@@H]2C3O[C@@H](c4ccc(O)c(O)c4)COC3O[C@H](CO)[C@H]2O)[C@H](O)[C@H](O)[C@H]1O | - | HepG2.2.15 | 720 µM
C=C(C)[C@H](CC)CC[C@@H](C)C1CCC2C3CC=C4C[C@@H](OC5OC(CO)C(O)C(O)C5O)CC[C@]4(C)C3CC[C@@]21C | - | HepG2.2.15 | 51 µM
C/C=C(/C)C(=O)Oc1c(OC)c(OC)cc2c1-c1c(cc3c(c1OC)OCO3)C[C@H](C)[C@@](C)(O)C2 | - | HepG2.2.15 | 31.96 µg/mL
Nc1ccn([C@@H]2CS[C@H](CO)O2)c(=O)n1 | - | HepG2.2.15 | 1530 µM
CC(=O)N[C@H]1C(O[C@@H]2[C@@H](O)[C@H](O)[C@@H](O)C[C@H]2OC(=O)[C@H]2C[C@H](O)[C@@]3(O)[C@@H](C2)O[C@@]2(C[C@H](OC(=O)c4ccccc4)[C@H](C)CO2)[C@@H]3O)O[C@H](CO)[C@@H](O)[C@@H]1O | - | HepG2 2.2.15 | 6.6 µM
C=C(C)[C@H](CC)CC[C@@H](C)[C@H]1CCC2C3C(CC[C@@]21C)[C@@]1(C)CC[C@H](O)CC1=C[C@H]3O | - | HepG2.2.15 | 92.5 µM
CC(=O)c1c(O)c(C(C)C)cc2c(c1=O)C[C@@]1(O)CCCC(C)(C)C1CC2 | - | HepG2.2.15 | 160 µM
C[C@H](Cn1cnc2c(N)ncnc21)OCP(=O)(O)O | - | HepG2.2.15 | >1740 µM
[N-]=[N+]=NCCc1c(Cl)nc2ccc(Cl)cc2c1-c1ccccc1Cl | - | HepG2.2.15 | 2510 µM
C[C@H]1C(O)CCC2[C@]3(C)CC[C@@]4(C)C5CC(C)(C)CC[C@]5(C)CC[C@]4(C)C3CC[C@@]21C | - | HepG2.2.15 | 88.5 µM
C[C@H](c1ccc(C(=O)NC23CC(c4nc5cc(Cl)ccc5s4)(C2)C3)o1)S(C)(=O)=O | - | Primary human hepatocytes | 0.36 µM
Cc1c(O)cc2c(c1O)C(=O)[C@H](Cc1ccc(O)cc1)CO2 | - | - | 2.58 µg/mL
C[C@@H]1CO[C@@]2(C[C@@H]1OC(=O)c1ccc(O)cc1)O[C@]1(O)C[C@@H](C(=O)O[C@@H]3C[C@H](O)[C@@H](O)[C@H](O)[C@H]3OC3O[C@H](CO)[C@@H](O)[C@H](O)[C@H]3OC3O[C@H](CO)[C@@H](O)[C@H](O)[C@H]3O)C[C@H](O)[C@]1(O)[C@H]2O | - | HepG2 2.2.15 | 35.8 µM
C/C=C(/C)C(=O)O[C@@H]1c2cc(OC)c(OC)c(OC)c2-c2c(cc3c(c2OC)OCO3)C[C@H](C)[C@@]1(C)O | - | HepG2.2.15 | 65.73 µg/mL
CC(=O)N[C@H]1C(O[C@@H]2[C@@H](O)[C@H](O)[C@@H](O)C[C@H]2OC(=O)[C@H]2C[C@H](O)[C@]3(O)[C@@H](O)[C@]4(C[C@H](OC(=O)c5ccc(O)cc5)[C@H](C)CO4)O[C@]3(O)C2)O[C@H](CO)[C@@H](O)[C@@H]1O | - | HepG2 2.2.15 | 24 µM
[N-]=[N+]=N[C@]1(CO)O[C@@H](n2ccc(NO)nc2=O)[C@@H](F)[C@@H]1O | - | HepG2.2.15 | >1 µM
CN1[C@H](C(=O)Nc2ccc(F)c(Cl)c2)C[C@H](c2ncc(-c3cn(C)cn3)s2)NS1(=O)=O | Genotype D | HepG2-NTCP | 0.467 µM
COC(=O)[C@H]1C[C@H](O)[C@@]2(O)[C@@H](C1)O[C@@]1(C[C@H](OC(=O)c3ccc(O)cc3)[C@H](C)CO1)[C@@H]2O | - | HepG2 2.2.15 | 28.8 µM